Pooled drug test results. Numbers come from NIAID ChemDB, via PubChem.

Common to all: whole-cell or culture tests; organism: Herpes simplex virus 2; cells: HFF; measure: EC50

Conditions beyond the fields shown may differ between rows.

structure	strain or isolate	method	value
Nc1nc2c(ncn2/C=C2/CC2(CO)CO)c(=O)[nH]1	-	cytopathic effect	>380 µM
CCCOc1nc(N)nc2c1ncn2/C=C1/C[C@@H]1CO	-	cytopathic effect	62.8 µM
Cc1cn([C@@H]2O[C@H](CO)[C@H]2CO)c(=O)[nH]c1=O	HEET	plaque count	3 µg/mL
COc1cc(OC)c(NC(=S)Nc2ccc(NC=O)cc2Cl)cc1Cl	12	ELISA	11 µg/mL
Nc1nc2c(ncn2/C=C2\CC2(CO)CO)c(=O)[nH]1	MS	plaque count	>380 µM
Nc1nc(OCC2CC2)c2ncn(/C=C3/C[C@@H]3CO)c2n1	-	cytopathic effect	171.6 µM
CC(C)[C@H](N)C(=O)N[C@H](C(=O)OCC(COC(=O)[C@@H](NC(=O)[C@@H](N)C(C)C)C(C)C)OCn1cnc2c(=O)[nH]c(N)nc21)C(C)C	-	plaque count	0.34 µM
Nc1nc2c(ncn2[C@@H](CCO)SCCO)c(=O)[nH]1	-	cytopathic effect	>200 µM
CC[C@@]1(Br)C(=O)NC(=O)N([C@H]2C[C@H](O)[C@@H](CO)O2)[C@H]1OC	MS	cytopathic effect	0.13 µM
CC(C)=CCc1ccc(O)c(=O)cc1C(C)C	Clinical isolate	plaque count	1.23 µM
Nc1nc2c(ncn2COCCO)c(=O)[nH]1	SR	plaque count	0.6 µg/mL
CCCCCCCCCCCCCCCCCCOC[C@H](COP(=O)(O)CO[C@H](CO)Cn1ccc(N)nc1=O)OCc1ccccc1	G	plaque count	0.07 µM
O=c1[nH]c(=O)n([C@H]2C[C@H](O)[C@@H](CO)O2)cc1CCCl	MS	cytopathic effect	0.38 µM
CCCSc1nc(N)nc2c1ncn2/C=C1/C[C@@H]1CO	-	cytopathic effect	65.9 µM
O=C(NCc1ccc(Cl)cc1)c1cn2c3c(cc(CN4CCOCC4)cc3c1=O)OC(c1cccnc1)C2	11572 (ACV-resistant)	plaque count	4.7 µM
Nc1nc(NC2CC2)c2ncn(/C=C3/C[C@@H]3CO)c2n1	-	cytopathic effect	>73.4 µM
Nc1nc(N)c2ncn(C=C3CC3CO)c2n1	-	cytopathic effect	430 µM
CC(C)c1ccc(O)c(O)c(=O)c1	Clinical isolate	plaque count	0.38 µM
CCCCCCCCCCCCCCCCOP(=O)(O)CO[C@H](CO)Cn1ccc(N)nc1=O	SR	plaque count	0.5 µM
Nc1nc2c(ncn2/C=C2/CC2(CO)CO)c(=O)[nH]1	-	cytopathic effect	>404 µM
CCCCCSc1nc(N)nc2c1ncn2/C=C1/C[C@@H]1CO	-	cytopathic effect	311 µM
COC(=O)C(Cc1c[nH]c2ccccc12)NP(=O)(O)OCC1C/C1=C/n1cnc2c(N)ncnc21	-	cytopathic effect	>184 µM
C=CCNc1nc(N)nc2c1ncn2/C=C1/C[C@@H]1CO	-	cytopathic effect	>367 µM
Cc1cn(C(CCO)SCCO)c(=O)[nH]c1=O	-	cytopathic effect	>200 µM
CCCC(=O)OCC(CO)OCn1cnc2c(=O)[nH]c(N)nc21	-	plaque count	1.7 µg/mL
Cn1cc(C(=O)NCc2ccc(Cl)cc2)c(=O)c2cc(CN3CCOCC3)ccc21	L6262351 (WILD TYPE)	plaque count	3.2 µM
CCCCCCCC/C=C\CCCCCCCOCCCOP1(=O)CO[C@@H](Cn2ccc(N)nc2=O)CO1	SR	plaque count	>1 µM
COC(=O)[C@H](C)NP(=O)(OC[C@H]1C/C1=C/n1cnc2c(N)nc(N)nc21)Oc1ccccc1	-	plaque count	12.7 µM
CCCCCCCC/C=C\CCCCCCCCOCCOP(=O)(O)CO[C@H](CO)Cn1ccc(N)nc1=O	MS	plaque count	0.005 µM
CC(=O)OCC(COC(C)=O)OCn1cnc2c(=O)[nH]c(N)nc21	-	plaque count	15.8 µg/mL
Nc1nc2c(ncn2/C=C2\CC2(CO)CO)c(=O)[nH]1	-	cytopathic effect	>380 µM
CCOc1ccc(-c2c3cc(O)c(=O)cc-3oc3cc(O)c(O)cc23)cc1	Clinical isolate	plaque count	0.52 µM
CCCCCCCCCCCCCCCCCOC[C@H](COP1(=O)CO[C@@H](Cn2ccc(N)nc2=O)CO1)OCc1ccccc1	MS	plaque count	0.2 µM
Nc1nc2c(ncn2COCCO)c(=O)[nH]1	V72833 (acyclovir-susceptible)	cytopathic effect	0.5 µg/mL
CN[C@H]1C[C@@H](n2cnc3c(N)ncnc32)[C@H](O)[C@@H]1O	-	-	>100 µg/mL
CC(=O)OCC(CO)OCn1cnc2c(=O)[nH]c(N)nc21	-	plaque count	2.7 µg/mL
CC(C)[C@H](N)C(=O)NCC(=O)OCC(COC(=O)CNC(=O)[C@@H](N)C(C)C)OCn1cnc2c(=O)[nH]c(N)nc21	-	plaque count	0.25 µM
C=CCOc1nc(N)nc2c1ncn2/C=C1/C[C@@H]1CO	-	cytopathic effect	>386 µM
Nc1ncnc2c1ncn2C=C1CC1CO	-	plaque count	47.9 µM
COC(=O)CC(SCCO)n1cc(C)c(=O)[nH]c1=O	-	cytopathic effect	>200 µM
C=C(C)[C@@H]1CCc2c(O)c(O)c(=O)cc(C)c2C1	Clinical isolate	plaque count	0.55 µM

A second listing of 3 rows from above:

structure	strain or isolate	method	value
CC[C@@]1(Br)C(=O)NC(=O)N([C@H]2C[C@H](O)[C@@H](CO)O2)[C@H]1OC	MS	cytopathic effect	0.13 µM
COC(=O)C(Cc1c[nH]c2ccccc12)NP(=O)(O)OCC1C/C1=C/n1cnc2c(N)ncnc21	-	cytopathic effect	>184 µM
CCOc1ccc(-c2c3cc(O)c(=O)cc-3oc3cc(O)c(O)cc23)cc1	Clinical isolate	plaque count	0.52 µM

An empty or dashed field is not shown. ECn is the concentration giving n% inhibition of infection, replication or growth.